Compound potency records, mixed from different reports. Data source: NIAID ChemDB in PubChem.

All rows: tests in culture; organism: Hepatitis C virus; read-out: EC50

Conditions beyond the fields shown may differ between rows.

| smiles | strain | cells | method | conditions | result |
|---|---|---|---|---|---|
| COc1ccc2c(c1)S(=O)(=O)N/C(=c1\c(=O)c3cccn3n(CCC(C)C)c1=O)N2 | 1b | HCV Huh-7/C24 | replicon |  | 17 µM |
| Nc1ccn([C@@H]2CS[C@H](CO)O2)c(=O)n1 | GT1b | Replicon cells | luciferase | 45% human serum | >241 µM |
| CCC(C)[C@H](NCC(=O)c1ccccc1)C(=O)Nc1ccc(C2SC(=Nc3cccc(F)c3)N(Cc3ccco3)C2=O)cc1 | genotype 1 |  | replicon | genotype 1b | 6 µM |
| NC(=O)c1ncn([C@@H]2O[C@H](CO)[C@@H](O)[C@H]2O)n1 |  | Ava5 | replicon |  | >100 µM |
| CC(=O)Nc1ccc(-c2ccc(Cl)cc2)c(COc2ccc(-c3nc4cc(C(=O)O)ccc4n3C3CCCCC3)cc2)c1 | 5a | Huh7 | luciferase |  | 0.1081 µM |
| CC1(C)CCC(C)(C)c2cc(C3(c4ccc(C(=O)O)cc4)OCCO3)ccc21 |  | Huh7.5.1 | MTT |  | 0.00145 µM |
| CC(C)CNC(=O)c1c(C(=O)O)sc2c(C3CCCCC3)c(-c3ccc(Cl)cc3)n(C)c12 |  | Huh7 |  |  | 30.8 µM |
| C[C@@]1(O)[C@H](O)[C@@H](CO)O[C@H]1n1ccc(N)nc1=O | GT3a | Huh7.5 | luciferase / replicon |  | 2.249 µM |
| Cc1cn([C@@H]2C[C@@H](O)[C@H](CO)O2)c(=O)[nH]c1=O | GT1b | Replicon cells | luciferase | 45% human serum | >220 µM |
| CN(C)C(=O)Cn1c(-c2ccc(Cl)cc2)c(C2CCCCC2)c2sc(C(=O)O)cc21 |  | Huh7 |  |  | 1.2 µM |
| CC(C)(C)Oc1cccc2nc(N)nc(N)c12 | JFH-1 | Huh7.5.1 | luciferase / replicon |  | 0.73 µM |
| C[C@]1(C(=O)O)CC[C@]2(C)CC[C@]3(C)C(=CC(=O)[C@@H]4[C@@]5(C)CC[C@H](O[C@H]6O[C@H](C(=O)O)[C@@H](O)[C@H](O)[C@H]6O[C@@H]6O[C@H](C(=O)O)[C@@H](O)[C@H](O)[C@H]6O)[C@](C)(CO)[C@@H]5CC[C@]43C)[C@@H]2C1 | 2a | Huh7.5 | microscopy / fluorescence |  | >30 µg/mL |
| CS(=O)(=O)Nc1ccc2c(c1)S(=O)(=O)N=C(C1=C(O)[C@@H]3[C@H]4CC[C@H](C4)[C@@H]3N(Cc3ccc(F)cc3)C1=O)N2 | GT1b | Huh7 | luciferase / replicon |  | 0.0081 µM |
| CC1=C(/C=C/C(C)=C\C=C\C(C)=C\C(=O)O)C(C)(C)CCC1 |  | Huh7.5.1 | MTT |  | 0.00424 µM |
| C[C@H](Cn1cnc2c(N)ncnc21)OCP(=O)(O)O | GT1b | Replicon cells | luciferase | 45% human serum | >237 µM |
| CN(c1ccc2c(c1)S(=O)(=O)N/C(=c1\c(=O)c3cccn3n(Cc3ccc(F)cc3)c1=O)N2)S(C)(=O)=O | 1b | HCV Huh-7/C24 | replicon |  | 0.33 µM |
| CN(C)Cc1c(C(=O)O)sc2c(C3CCCCC3)c(-c3ccc(Cl)cc3)n(C)c12 |  | Huh7 |  |  | 1.2 µM |
| COCCN(CC(=O)NC1CCCCC1)C(=O)CCN1C(=O)[C@H](C)C2CC[C@H](C)C3CC[C@]4(C)OO[C@]32C1O4 |  | Huh 5-2 | replicon |  | 2 µM |
| Nc1ccn([C@@H]2CS[C@H](CO)O2)c(=O)n1 |  |  | luciferase |  | >150 µM |
| CCCCCOc1cc2c(cc1-c1cc(/C=C/C(=O)O)ccc1O)C(C)(C)CCC2(C)C |  | Huh7.5.1 | MTT |  | 0.00568 µM |
| COc1ccc(-c2c(C3CCCCC3)c3sc(C(=O)O)cc3n2CC(=O)N(C)C2CCN(C(C)C)C2)cc1 |  | Huh7 |  |  | 0.4 µM |
| CC1(C)[C@@H](O[C@H]2O[C@H](C(=O)O)[C@@H](O)[C@H](O)[C@H]2O[C@@H]2O[C@H](C(=O)O)[C@@H](O)[C@H](O)[C@H]2O)CC[C@]2(C)[C@H]3C(=O)C=C4[C@@H]5C[C@@](C)(C(=O)O)CC[C@]5(C)CC[C@@]4(C)[C@]3(C)CC[C@@H]12 | 2a | Huh7.5 | microscopy / fluorescence |  | 320 µg/mL |
| CCN(CC(=O)NCc1ccccc1)C(=O)CCN1C(=O)[C@H](C)C2CC[C@H](C)C3CC[C@]4(C)OO[C@]32C1O4 | JFH-1/CS-N6 | Huh7.5.1 | PCR |  | 31 µM |
| CN1c2cc3c(cc2N=C(c2ccc(C(=O)O)cc2)c2ccccc21)C(C)(C)CCC3(C)C |  | Huh7.5.1 | MTT |  | 0.00000477 µM |
| COc1ccc(C(=O)Nc2cccc(Cn3nc(C(N)=O)c4ccccc43)c2)cc1 | JFH-1 | Huh7.5.1 | luciferase / replicon |  | 0.056 µM |
| CCCCN(CC(=O)NC)C(=O)CCN1C(=O)[C@H](C)C2CC[C@H](C)C3CCC4(C)OO[C@]32C1O4 |  | Huh 5-2 | replicon |  | 2 µM |
| C[C@@]1(O)[C@H](O)[C@@H](CO)O[C@H]1n1cnc2c(N)ncnc21 |  | H77 | luciferase |  | 0.3717 µM |
| CC1(C)[C@@H](O[C@@H]2O[C@H](C(=O)O)[C@@H](O)[C@H](O)[C@H]2O)CC[C@]2(C)[C@H]3C(=O)C=C4[C@@H]5C[C@@](C)(C(=O)O)CC[C@]5(C)CC[C@@]4(C)[C@]3(C)CC[C@@H]12 | 2a | Huh7.5 | microscopy / fluorescence |  | >30 µg/mL |
| O=c1ccn([C@@H]2O[C@H](CO)C[C@H]2O)c(=O)[nH]1 |  |  | luciferase |  | >150 µM |
| O=C(CN[C@@H](Cc1ccccc1)C(=O)Nc1ccc(C2SC(=Nc3cccc(F)c3)N(Cc3ccco3)C2=O)cc1)c1ccccc1 | genotype 1 |  | replicon | genotype 1b | >50 µM |
| O=C(/C=C/c1ccc(O)cc1)c1ccc(O)cc1O | 2a | Huh7.5 | microscopy / fluorescence |  | 3.7 µg/mL |
| CCCCCCCOc1cc2c(cc1/C(C)=C/c1ccc(C(=O)O)cc1)C(C)(C)CCS2(=O)=O |  | Huh7.5.1 | MTT |  | 0.000943 µM |
| CC(C)N1CCC(N(C)C(=O)Cn2c(-c3ccc(Cl)cc3)c(C3CCCCC3)c3sc(C(=O)O)cc32)C1 |  | Huh7 |  |  | 0.52 µM |
| CCO[C@@H]1[C@H](OCC)[C@@H](OCC)C=C2c3cc4c(cc3C(=O)N(CC)[C@H]21)OCO4 | Synthesized HCV RNA | Huh7.5 | antigen / microscopy |  | >83 µM |
| CCC[C@H](NC(=O)[C@@H]1[C@H]2CCC[C@H]2CN1C(=O)[C@@H](NC(=O)[C@@H](NC(=O)c1cnccn1)C1CCCCC1)C(C)(C)C)C(=O)C(=O)NC1CC1 | JFH-1 | Huh7.5.1 | luciferase / replicon |  | 0.613 µM |
| CC(C)(C)OC(=O)N[C@@H]1CCCCC/C=C\[C@@H]2C[C@@]2(C(=O)NS(=O)(=O)C2CC2)NC(=O)[C@@H]2C[C@@H](OC(=O)N3Cc4cccc(F)c4C3)CN2C1=O | HK6a | Huh7.5 | antigen |  | 0.025 µM |
| O=C(O)c1ccc2c(c1)nc(-c1ccc(OCc3cc(N4CCCC4=O)ccc3-c3ccc(Cl)cc3)cc1F)n2C1CCCCC1 | GT2a | Huh7 | luciferase / replicon |  | 10.62 µM |
| COCn1c(-c2ccccc2)c(C2CCCCC2)c2sc(C(=O)O)c(CN(C)Cc3ccccc3)c21 |  | Huh7 |  |  | 1.1 µM |
| COC(=O)N[C@H](C(=O)N1CCC[C@H]1c1ncc(-c2ccc(-c3ccc(-c4cnc([C@@H]5CCCN5C(=O)[C@@H](NC(=O)OC)C(C)C)[nH]4)cc3)cc2)[nH]1)C(C)C | S52 | Huh7.5 | antigen |  | 0.00008 µM |
| C=C[C@@H]1C[C@]1(NC(=O)[C@@H]1C[C@@H](c2csc(-c3ccccc3OC)n2)CN1C(=O)C(NC(=O)OC1CCCC1)C(C)(C)C)C(=O)NS(=O)(=O)C1CC1 |  | Huh7 cells | replicon |  | 0.037 µM |
| C[C@H]1CCC2[C@@H](C)C(=O)N(CCC(=O)N(CC(=O)NCc3ccccc3)c3ccc(Cl)cc3)C3OC4(C)CCC1[C@@]23OO4 |  | Huh 5-2 | replicon |  | 6 µM |

5 of the rows above, restated:

| smiles | strain | cells | method | conditions | result |
|---|---|---|---|---|---|
| CC(C)CNC(=O)c1c(C(=O)O)sc2c(C3CCCCC3)c(-c3ccc(Cl)cc3)n(C)c12 |  | Huh7 |  |  | 30.8 µM |
| Cc1cn([C@@H]2C[C@@H](O)[C@H](CO)O2)c(=O)[nH]c1=O | GT1b | Replicon cells | luciferase | 45% human serum | >220 µM |
| O=C(CN[C@@H](Cc1ccccc1)C(=O)Nc1ccc(C2SC(=Nc3cccc(F)c3)N(Cc3ccco3)C2=O)cc1)c1ccccc1 | genotype 1 |  | replicon | genotype 1b | >50 µM |
| C[C@H](Cn1cnc2c(N)ncnc21)OCP(=O)(O)O | GT1b | Replicon cells | luciferase | 45% human serum | >237 µM |
| CC1(C)CCC(C)(C)c2cc(C3(c4ccc(C(=O)O)cc4)OCCO3)ccc21 |  | Huh7.5.1 | MTT |  | 0.00145 µM |

Blank or dashed fields: not listed here. ECn is the concentration giving n% inhibition of infection, replication or growth.